We go through three molecules from PubChem BioAssay (NCATS).

This is a selection; strong and weak results do not stand in their true shares. Records with an inconclusive call do not appear. The source made the active and inactive calls. Unless noted, calls come from the whole dose curve; as a rule, active = well fitted curve in the direction sought with a large enough effect; inconclusive = small, poorly fitted or top-dose-only effect, or another doubt; inactive = no such curve, though single readings can be large; an effect the other way counts as inactive or inconclusive.

Test [1] deals with Endonuclease 4 (Escherichia coli (strain K12)) (UniProt P0A6C1). In words: Counterscreen for APE1 Inhibitors: qHTS Validation Assay for Inhibitors of Endonuclease IV (AID 1708). Note: % is set by controls: 0 for no effect and ±100 for the full control effect. The note with it: E. coli endonuclease IV, DNA cleavage fluorescence; at 57.1 µM (top of the series). The essentials:
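E. coli EndoIV at 2 nM final, preincubated 15 min at room temperature with compound, then 50 nM TAMRA/BHQ-2 THF abasic-site duplex added. Buffer: 50 mM Tris-HCl pH 7.5, 50 mM NaCl, 2 mM MgCl2, 1 mM DTT, 0.01% Tween-20. Kinetic fluorescence increase, third minus first read.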

Test [2] can be described thus: qHTS for differential inhibitors of proliferation of Plasmodium falciparum line 3D7 (AID 1876). Note: potency is the fitted concentration of half-maximal effect. Conditions: P. falciparum 3D7 proliferation inhibition. For orientation: qHTS replaces the single test concentration by a dilution series.
The nature of test [3]: Validation screen for inhibitors of Lassa infection (AID 463096; calls by dose curve; note: % is set by controls: 0 for no effect and ±100 for the full control effect). Conditions: Lassa virus infection, cell-based; at 46.1 µM (top of the series).
The target of test [4] is DNA polymerase III PolC-type (Bacillus subtilis (strain 168)) (UniProt P13267). Briefly: qHTS Validation Assay for the Inhibitors of DNA Replication in Gram-Positive Bacteria (AID 485295).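 Note: PicoGreen fluorescence of double-stranded DNA made on primed circular M13 template; 0% = DMSO wells and -100% = EDTA-quenched background wells.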 The note with it: Gram-positive bacterial DNA replication assay; at 57.1 µM (top of the series). The gist of the method:
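Reconstituted B. subtilis Pol III holoenzyme (PolC, beta clamp, SSB, primase) preincubated with compound, then M13Gori single-stranded circular template with dNTPs/NTPs added; room temperature reaction. Stopped with EDTA/PicoGreen; dsDNA fluorescence read, EDTA as full-inhibition control.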

Test [5] deals with Tumor susceptibility gene 101 protein (Homo sapiens) (UniProt Q99816). In words: qHTS Validation Assay for Iinhibitors of HIV-1 Budding by Blocking the Interaction of PTAP/TSG101 (AID 485342; calls by dose curve; note: 0% is about no effect). Conditions: TSG101-PTAP binding, fluorescence polarization, 4-point titration; at 115 µM (top of the series). The essentials:
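Tsg101 binding domain (10 uM) with FITC-labeled PTAP peptide (50 nM) in HEPES pH 7.5 buffer, 20 min at r.t. with compounds. Binding measured by fluorescence polarization.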

For test [6], the target named is ATP-dependent 6-phosphofructokinase (Trypanosoma brucei brucei) (UniProt O15648). In words: qHTS Validation Assay to Find Inhibitors of T. brucei phosphofructokinase (AID 485368). Conditions: T. brucei PFK enzyme assay, qHTS 7-point titration; at 57.5 µM (top of the series).
The nature of test [7]: Quantitative high throughput screen for delayed death inhibitors of the malarial parasite plastid, 48 hour incubation (AID 488752). Note: % is set by controls: 0 for no effect and ±100 for the full control effect; nearly all actives have a fitted effect of over 65% in size. The note with it: Plasmodium falciparum growth; at 28.7 µM (top of the series). The gist of the method:
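Readout is firefly luciferase luminescence from a reporter integrated into the parasite genome, with lower signal taken as inhibited growth. Infected red cells (0.1% parasitemia, 2% hematocrit final) are cultured with compound for one 48 h cycle at 37 C.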

Test [8] concerns the target Phosphoglycerate kinase, glycosomal (Trypanosoma brucei brucei) (UniProt P07378). In words: qHTS Validation Assay to Find Inhibitors of Phosphoglycerate Kinase (AID 504547).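 Note: control wells lack PGK and mark full inhibition.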 The note with it: enzymatic PGK inhibition, coupled luminescence read-out; at 57.5 µM (top of the series). The gist of the method:
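PGK activity was coupled to GAPDH (100nM final), which generates the unstable substrate 1,3-bisphosphoglycerate in-well. Reactions ran 60 minutes at room temperature in 100mM TEA pH 7.6, 5mM MgCl2, 0.01% Tween-20, then Kinase-Glo Plus luminescence was read.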

Test [9] concerns the target phosphoglycerate mutase (Leishmania major) (UniProt Q4Q090). In words: qHTS Validation Assay to Find Inhibitors of Phosphoglycerate Mutase (AID 504548).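 Note: end-point luminescence from Kinase-GloPlus after the PGAM reaction; % is set by controls: 0 for no effect and ±100 for the full control effect.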 Conditions: biochemical enzyme activity; at 57.5 µM (top of the series). The essentials: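 L. major PGAM (1.25nM final) was added to substrate buffer and pinned compound, incubated 45 minutes at room temperature, then Kinase-GloPlus added; luminescence read after 10 minutes. Buffer: 100 mM TEA pH 7.6, 5 mM MgCl2, 0.01% Tween-20.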

Test [10] in a line: qHTS of Trypanosoma Brucei Inhibitors: LOPAC Validation (AID 624147). Note: 0% is about no effect. The note with it: Trypanosoma brucei growth inhibition; at 57.5 µM (top of the series). The gist of the method:
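Assay buffer: 50 mM TEA pH 7.2, 100 mM KCl, 10 mM MgCl2, 0.05% BSA, 0.01% Tween-20. Pyruvate kinase from T. brucei plus substrate met compound, then ADP (130 uM final). Luminescence was read post 45 min RT.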

Test [11] is described as follows: qHTS assay for measurement of the activity of small molecule inhibitors on Zika virus induced Caspase-3 activity in human iPSC derived neural progenitor cells (hNPCs) (AID 1224857). Note: % of control where 0% means no effect; nearly all actives have a fitted effect of over 65% in size. The note with it: hNPCs ZIKV-induced caspase-3/7, Caspase-Glo luminescence, 6 h; at 45.7 µM (top of the series) unless noted.
Test [12] in a line: qHTS assay for measurement of the activity of small molecule inhibitors on Zika virus induced Caspase-3 activity in human astrocytoma cells (AID 1224859).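 Note: plate controls were ZIKV-infected untreated cells for no effect and uninfected cells for full effect.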 The note with it: SNB-19 ZIKV-induced caspase-3/7, luminescence, 6 h; at 45.7 µM (top of the series) unless noted.
Test [13] is described as follows: NS1 protein of Zika virus - qHTS assay to identify small molecule inhibitors in human HEK 293 cells (AID 1347053).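 Note: plate controls were infected untreated cells for no effect and uninfected cells for full effect; nearly all actives have a fitted effect of over 55% in size.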 The note with it: HEK293 ZIKV MR766 infection, NS1 TR-FRET, 24 h; at 46.1 µM (top of the series) unless noted.
Test [14] is described as follows: qHTS for Inhibitors of the Functional Ribonucleoprotein Complex (vRNP) of Lassa (LASV) Arenavirus: LASV Primary Screen - GLuc reporter signal (AID 1347082; calls by dose curve; tested in HEK293 reporter line; note: % is set by controls: 0 for no effect and ±100 for the full control effect; nearly all actives have a fitted effect of over 60% in size). The note with it: LASV minigenome vRNP, Gaussia luciferase reporter; at 57.5 µM (top of the series) unless noted.
The nature of test [15]: qHTS for Inhibitors of the Functional Ribonucleoprotein Complex (vRNP) of Lassa (LASV) Arenavirus: Viability assay - alamar blue signal for LASV Primary Screen (AID 1347083; calls by dose curve; tested in HEK293 reporter line; note: % is set by controls: 0 for no effect and ±100 for the full control effect; nearly all actives have a fitted effect of over 80% in size). Conditions: cell viability, alamar blue fluorescence (LASV minigenome counter-screen); at 57.5 µM (top of the series) unless noted.
Test [16] can be described thus: qHTS for Inhibitors of the Functional Ribonucleoprotein Complex (vRNP) of Lymphocytic Choriomeningitis Arenaviruses (LCMV): Viability assay - alamar blue signal for LCMV Primary Screen (AID 1347085; calls by dose curve; tested in HEK293 reporter line; note: % is set by controls: 0 for no effect and ±100 for the full control effect; nearly all actives have a fitted effect of over 80% in size). The note with it: alamar blue viability counter-screen, LCMV vRNP screen cells; at 57.5 µM (top of the series) unless noted.
The target of test [17] is Nucleoprotein (Lymphocytic choriomeningitis virus (strain Armstrong)) (UniProt P09992). In words: qHTS for Inhibitors of the Functional Ribonucleoprotein Complex (vRNP) of Lymphocytic Choriomeningitis Arenaviruses (LCMV): LCMV Primary Screen - GLuc reporter signal (AID 1347086; calls by dose curve; note: % is set by controls: 0 for no effect and ±100 for the full control effect; nearly all actives have a fitted effect of over 70% in size). Conditions: LCMV minigenome vRNP cell assay, Gaussia luciferase reporter; at 57.5 µM (top of the series) unless noted.

In test [18] the test system is Zika virus NS2B-NS3 protease (unlinked). Briefly: Optimization of GU AMC qHTS for Zika virus inhibitors: Unlinked NS2B-NS3 protease assay (AID 1347151).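 Note: 0% = no-inhibitor control and -100% = no-enzyme control; nearly all actives have a fitted effect of over 80% in size.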 The note with it: recombinant ZIKV NS2B-NS3 protease, fluorogenic AMC substrate; at 52.5 µM (top of the series). The gist of the method:
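Noncovalent NS2B hydrophilic domain–NS3 protease complex (25 nM final) in 10 mM Tris-HCl pH 8.0, 0.01% Tween 20; AMC substrate, room temperature 15 min (~20% conversion); fluorescence change normalized, 4-parameter Hill fit.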

The nature of test [19]: Primary qHTS for inhibitors of La Crosse Virus (LACV) - induced cell death in SH-SY5Y cells (AID 1508616).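 Note: top concentration of the series differs between compounds; 0% = infected DMSO wells and 100% = uninfected DMSO wells; higher means more rescue of cells from virus-induced death.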 Conditions: SH-SY5Y LACV cytopathicity rescue, ATP luminescence, 6 d; at 9.63 µM (top of the series) unless noted. The essentials:
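Protection against LACV-induced cell death is scored in SH-SY5Y cells exposed to compounds and virus (0.01 MOI) for 6 days. Data normalized to virus-infected DMSO wells and virus-free DMSO wells.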

Test [20] is described as follows: Primary qHTS to identify inhibitors of SARS-CoV-2 cell entry (AID 1645846; calls by dose curve; note: potency is the fitted concentration of half-maximal effect; nearly all actives have a fitted effect of over 45% in size). Conditions: SARS-CoV-2 pseudovirus cell entry assay, luminescence.
Test [21] has as its target Pyruvate kinase (Leishmania mexicana) (UniProt Q27686). Briefly: qHTS Validation Assay for Inhibitors of Leishmania Mexicana Pyruvate Kinase (AID 945).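 Note: 0% = DMSO only neutral control wells.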 Conditions: purified L. mexicana pyruvate kinase, enzyme activity, E451W mutant enzyme; at 57.5 µM (top of the series). The gist of the method: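 Pyruvate kinase activity of E451W LmPYK (0.2 nM) was followed as ATP output after 1 h at room temperature with 0.5 mM PEP and 0.1 mM ADP, detected by PKLight luminescence.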

Test [22] is described as follows: qHTS for differential inhibitors of proliferation of Plasmodium falciparum line D10 (AID 1877).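 Note: parasites grown with compound for 72 h before DNA staining; plate controls were vehicle wells for no effect and reference inhibitor wells for full effect.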 The note with it: at 28.7 µM (top of the series).
The nature of test [23]: qHTS for differential inhibitors of proliferation of Plasmodium falciparum line Dd2 (AID 1882). Note: potency is the fitted concentration of half-maximal effect; nearly all actives have a fitted effect of over 65% in size. The note with it: Plasmodium falciparum Dd2 proliferation inhibition. The gist of the method: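 Dd2-infected erythrocytes (0.3% parasitemia, 2.5% hematocrit final) incubated with compound 72 h at 37 C, 5% CO2; lysed with saponin/Triton buffer containing SYBR Green I, incubated overnight in the dark, then read by fluorescence (485/535 nm). Normalized to 0.29 uM artemisinin and DMSO.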

Test [24] is described as follows: Quantitative high throughput screen for delayed death inhibitors of the malarial parasite plastid, 96 hour incubation (AID 488745).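 Note: luciferase-expressing P. falciparum in erythrocytes at 2% hematocrit and 0.1% parasitemia; % is set by controls: 0 for no effect and ±100 for the full control effect; nearly all actives have a fitted effect of over 70% in size.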 Conditions: Plasmodium falciparum growth; at 28.7 µM (top of the series). The essentials: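 Infected erythrocytes were added to compound in Albumax-supplemented RPMI 1640 at 0.1% parasitemia and 2% hematocrit (final), incubated 96 h at 37 C under 5% CO2, then luciferase reagent was added and luminescence measured.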

For test [25], the system named is Zika virus NS2B-NS3 protease. In words: Primary screen GU AMC qHTS for Zika virus inhibitors (AID 1347154).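 Note: 0% = no-inhibitor control and -100% = no-enzyme control; nearly all actives have a fitted effect of over 70% in size.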 Conditions: Zika NS2B-NS3 unlinked protease, AMC fluorogenic substrate; at 54.1 µM (top of the series) unless noted.

With `CN(C(=O)Cc1ccc(Cl)c(Cl)c1)[C@@H]1CC[C@]2(CCCO2)C[C@H]1N1CCCC1`, the activity change, negative = inhibition in test [1] was inactive: -9.48%; in test [3], inactive: -43.8%; in test [4], inactive: 5.95%; in [7], inactive: -29.7%; in test [9] it was inactive: -4.29%; in test [10], inactive: -4.7%. Also, the activity change, negative = inhibition is inactive: 14.1% in test [11]; inactive: -1.23% in test [12]; inactive: 17.8% in [13]; inactive: -2.24% in [14]; inactive: -9.27% in test [17]; inactive: 4.24% in [18]. In addition, in test [2], the Potency is active: 12.6 µM. Besides, in [5], the fluorescence change is inactive: 3.12%. Moreover, in [6], the result was inactive. For the same molecule, in test [8], the activity, negative = inhibition is inactive: 6.68%. The activity change, negative = reduced viability in test [15] is inactive: -8.87%. In test [16], the activity change, negative = lower viability is inactive: -9.15%. The activity change in [19] was inactive: -28.5%.

Turning to `N[C@@H](Cc1ccc([N+]([O-])(CCCl)CCCl)cc1)C(=O)O`, the Potency in [20] was active: 14.1 µM.

As for `CN(CCCl)Cc1cc(Cl)c(NC2=NCCN2)c(Cl)c1`, the activity change, negative = inhibition in test [21] is inactive: -6.7%; in test [1], inactive: -8.03%; in test [22], inactive: -13.7%; in [3], inactive: -30.3%; in [4], inactive: 6.11%; in test [24], inactive: 6.68%. Further, the activity change, negative = inhibition was inactive: -1.49% in test [7]; inactive: -1.6% in test [9]; inactive: 4.56% in test [10]; inactive: 5.19% in test [12]; inactive: 2.03% in test [14]; inactive: 3.14% in [17]. The activity change, negative = inhibition in [25] is inactive: 14.2%. Besides, the Potency in test [23] is active: 11.2 µM. For the same molecule, the fluorescence change in test [5] was inactive: 3.85%. In addition, in test [8], the activity, negative = inhibition is inactive: 9.38%. The activity change, negative = reduced viability in test [15] was inactive: 0.194%. For the same molecule, the activity change, negative = lower viability in test [16] is inactive: -0.958%.
